This assay concerns the target SARS-CoV-2 M^pro (Severe acute respiratory syndrome coronavirus 2, UniProt P0DTD1). The assay is described as follows: FRET-based enzymatic assay for SARS-CoV-2 main protease. Type of assay: biochemical.

Read-outs that look alike come from different tables or passages of the source.

Our source for the IC50 values is patent publication US12715896B2 (priority 2020, dated 2026).

By IC50 is commonly meant the concentration that gives 50% inhibition. In the case of `CCCC[C@H](NC(=O)[C@@H]1[C@@H]2[C@H](CN1C(=O)[C@@H](NC(=O)NC1(CS(=O)(=O)C(C)(C)C)CCCCC1)C(C)(C)C)C2(C)C)C(=O)C(=O)NC1CC1` [Narlaprevir (29), Narlaprevir], for the setting “read-out: SARS-CoV-2 M^pro IC50”, the IC50 was 4.73 µM.

As to `CCC[C@@H](C=O)NC(=O)[C@H](CC(C)C)NC(=O)[C@H](CC(C)C)NC(=O)OCc1ccccc1` [Jun9-48-2], inhibition was half-maximal at 1.49 µM (IC50).
